In this data set the test system is gene expression in intestines, liver, and skin. Kind of data set: RNA sequencing, differential gene expression after PTX 251D feeding. In kind it is in vivo, Dendrobates tinctorius. The settings on record: DHQ+PTX vs DHQ. From the text:
Lab-reared (non-toxic) Dendrobates tinctorius were housed in terraria with live plants, a water pool, and a shelter. Ten adult females were size-matched, randomly assigned to control or experimental groups (N = 5 per group), and then housed individually. To measure the specific effects of PTX 251D compared to a background toxicity, the control group was fed 0.01% DHQ (Sigma-Aldrich, St. Louis, USA) in a solution of 1% EtOH and the experimental group was fed a solution of 0.01% DHQ and 0.01% PTX 251D (PepTech, Burlington, MA, USA) in a solution of 1% EtOH in water. Each frog was fed 15 μL each day for five days by pipetting the solution directly into the mouth between 10am-12pm. On the afternoon of the fifth day, frogs were euthanized by cervical transection and the dorsal skin, liver, intestines, and oocytes were dissected into Trizol (Thermo Fisher Scientific, Waltham, USA).
RNA extraction followed the Trizol (Thermo Fisher Scientific, Waltham, MA, USA) protocol outlined in Caty et al. 2019 [16] and according to the manufacturer’s instructions. After the first spin, the organic layer was saved for alkaloid extraction (see below). Poly-adenylated RNA was isolated using the NEXTflex PolyA Bead kit (Bioo Scientific, Austin, USA) following manufacturer’s instructions. RNA quality and lack of ribosomal RNA was confirmed using an Agilent 2100 Bioanalyzer (Agilent Technologies, Santa Clara, USA). Each RNA sequencing library was prepared using the NEXTflex Rapid RNAseq kit (Bioo Scientific). Libraries were quantified with quantitative PCR (NEBnext Library quantification kit, New England Biolabs, Ipswich, USA) and a Agilent Bioanalyzer High Sensitivity DNA chip, both according to manufacturer’s instructions. All libraries were pooled at equimolar amounts and were sequenced on four lanes of an Illumina HiSeq 4000 machine to obtain 150 bp paired-end reads.
We created a reference transcriptome using Trinity and filtered the raw assembly by removing contigs with BLAST hits belonging to microorganisms and invertebrates in the Swiss-Prot database, as these represent likely parasites, prey items, or other contaminants. Overlapping contigs were clustered using cd-hit-est and contigs that were less than 250bp long were removed from the assembly. We mapped the paired quality-trimmed Illumina reads to the reference transcriptome using kallisto [35]. Samples were compared across treatment groups (DHQ vs DHQ+PTX) for the skin, liver, and intestines, as these tissues contained higher levels of PTX. Differences in gene expression levels were calculated using DESeq2 [36] [P<0.05 false discovery rate (Benjamini–Hochberg FDR), 4-fold change]. Contigs with significant expression differences were compared to the non-redundant (nr) database using BLAST with an E-value cutoff of 1e-5. […]

Here are results for 1 compound from publication PMC8916643, “Molecular physiology of pumiliotoxin sequestration in a poison frog” (PLoS ONE, 2022).

Regarding `CCCCC(C)C=C1CN2CCCC2C(C)(O)C1` (stereo not shown) [PTX 251D, pumiliotoxin (PTX 251D)], the “MHC Class Iα expression log2FC” value (intestines) came to 5.41. Where the note is “liver”, the “MHC Class Iα expression log2FC” value was found to be 3.49 and the “vitellogenin 2 (VTG2) expression log2FC” value is -7.73. In addition, the “solute carrier family 2 protein (SLC2) expression log2FC” value (skin, stated downregulated) amounted to 6.73.
